Anti-infective test results gathered from many reports (values: NIAID ChemDB through PubChem).

Shared fields: enzyme or target tests; organism: HIV-1; target: Protease

Neighbouring rows are from separate reports.

structure,method,read-out,strain,changes,result
CC(C)[C@H](NC(=O)OCc1ccccn1)C(=O)N[C@@H](CCc1ccccc1)[C@@H]1O[C@@H]1[C@H](CCc1ccccc1)NC(=O)[C@@H](NC(=O)OCc1ccccn1)C(C)C,fluorescence,IC50,-,-,>1000 µg/mL
CC1(C)CC[C@]2(C(=O)O)CC[C@]3(C)C(=CC[C@@H]4[C@@]5(C)CC[C@H](OC(=O)c6ccccc6)C(C)(C)[C@@H]5CC[C@]43C)[C@@H]2C1,FRET,IC50,-,-,>1200 µg/mL
COC(=O)[C@]12CCC(C)(C)CC1C1=CCC3[C@@]4(C)CC[C@H](NC(=O)CCCCC(=O)NCCCC(=O)O)C(C)(C)C4CC[C@@]3(C)[C@]1(C)CC2,HPLC,IC50,-,-,6 µM
CC(C)C[C@H](NC(=O)[C@@H](NC(=O)CCCCCCCCCCCCCCC(=O)N[C@@H](CC(N)=O)C(=O)N[C@@H](Cc1cccc2ccccc12)C(=O)O)C(C)O)C(=O)N[C@@H](Cc1ccccc1)C(N)=O,-,IC50,-,-,2.9 µM
CCC(=O)O[C@H]1CC[C@]2(C)[C@H]3CC=C4[C@@H]5CC(C)(C)CC[C@]5(C(=O)O)CC[C@@]4(C)[C@]3(C)CC[C@H]2C1(C)C,FRET,IC50,-,-,>1200 µg/mL
COC(=O)[C@]12CCC(C)(C)CC1C1=CCC3[C@@]4(C)CC[C@H](NC(=O)CCCCC(=O)O)C(C)(C)C4CC[C@@]3(C)[C@]1(C)CC2,HPLC,IC50,-,-,3 µM
CC(C)C[C@H](NC(=O)[C@@H](NC(=O)CCCCCCCCCCCCCCC(=O)N[C@@H](CCC(N)=O)C(=O)N[C@@H](Cc1ccccc1)C(=O)O)C(C)O)C(=O)N[C@@H](Cc1ccccc1)C(N)=O,-,IC50,-,-,>5.5 µM
C=CSC(NC(=O)[C@H](Cc1ccccc1)NS(=O)(=O)N1CCOCC1)C(=O)N[C@@H](CC1CCCCC1)[C@@H](O)C[C@H](C(=O)NCCCC)C(C)C,HPLC,IC50,-,-,0.002 µM
C=C(C)[C@@H]1CC[C@]2(C(=O)OC)CC[C@]3(C)[C@H](CC[C@@H]4[C@@]5(C)CC[C@H](OC(=O)CCC(=O)OC)C(C)(C)C5CC[C@]43C)[C@@H]12,HPLC,IC50,-,-,40 µM
CC(C)CN(C[C@@H](O)[C@H](Cc1ccccc1)NC(=O)O[C@H]1CO[C@H]2OCC[C@H]21)S(=O)(=O)c1ccc2[nH]c(O)c(C=NCc3nc4ccccc4[nH]3)c2c1,substrate cleavage,Ki,-,L10 V32 V33 M46 M47 L63 A71 V82 I84 mutant,<0.001 µM
CC(C)C[C@H](NC(=O)[C@@H](NC(=O)CCCCCCCCCCCCCCC(=O)N[C@@H](CC(N)=O)C(=O)N[C@@H](Cc1ccccc1)C(=O)O)C(C)O)C(=O)N[C@@H](Cc1ccc(O)cc1)C(=O)O,-,IC50,-,-,>5.5 µM
C[C@@H]1CC[C@]2(C(=O)O)CC[C@]3(C)C(=CCC4[C@@]5(C)CC[C@H](OC(=O)CCCC(=O)O)C(C)(C)C5CC[C@]43C)C2[C@H]1C,HPLC,IC50,-,-,4 µM
CC(O)[C@H](NC(=O)CCCCCCCCCCCCCCC(=O)N[C@@H](CC(N)=O)C(=O)N[C@@H](Cc1ccccc1)C(=O)O)C(=O)N[C@@H](CC(N)=O)C(=O)N[C@@H](Cc1ccccc1)C(N)=O,-,IC50,-,-,>5.5 µM
CC(C)CN(C[C@@H](O)[C@H](Cc1ccccc1)NC(=O)O[C@H]1CO[C@H]2OCC[C@H]21)S(=O)(=O)c1ccc2c(c1)/C(=C/N(C)C)C(=O)N2,substrate cleavage,Ki,HXB2,-,<0.0001 µM
CCCC(=O)O[C@H]1CC[C@]2(C)[C@H]3CC=C4[C@@H]5CC(C)(C)CC[C@]5(C(=O)OCc5ccccc5)CC[C@@]4(C)[C@]3(C)CC[C@H]2C1(C)C,FRET,IC50,-,-,>1200 µg/mL
CC(C)[C@H](NC(=O)N(C)CCc1ccccn1)C(=O)N[C@@H](Cc1ccccc1)[C@@H]1O[C@@H]1[C@H](Cc1ccccc1)NC(=O)[C@@H](NC(=O)N(C)CCc1ccccn1)C(C)C,fluorescence,IC50,-,-,>1000 µg/mL
COC(=O)[C@]12CCC(C)(C)CC1C1=CCC3[C@@]4(C)CCC(=O)C(C)(C)C4CC[C@@]3(C)[C@]1(C)CC2,HPLC,IC50,-,-,20 µM
CCC(C)[C@H](NC(=O)N(C)Cc1ccccn1)C(=O)N[C@@H](Cc1ccc2ccccc2c1)[C@@H]1O[C@@H]1[C@H](Cc1ccc2ccccc2c1)NC(=O)[C@@H](NC(=O)N(C)Cc1ccccn1)C(C)CC,fluorescence,IC50,-,-,>1000 µg/mL
CCCCCCCCCCCC(=O)O[C@@H]1C[C@]2(C)[C@H]3CC=C4[C@@H]5CC(C)(C)CC[C@]5(C(=O)O)CC[C@@]4(C)[C@]3(C)CC[C@H]2C(C)(C)[C@H]1O,FRET,IC50,-,-,>1200 µg/mL
CC(C)C[C@H](NC(=O)[C@@H](NC(=O)CCCCCCCCCCCCCCC(=O)N[C@@H](CS(C)=O)C(=O)N[C@@H](Cc1ccccc1)C(=O)O)C(C)O)C(=O)N[C@@H](Cc1ccccc1)C(N)=O,-,IC50,-,-,11.89 µM
CC(=O)O[C@H]1CC[C@]2(C)[C@H]3CC=C4[C@@H]5CC(C)(C)CC[C@]5(C(=O)OCc5ccccc5)CC[C@@]4(C)[C@]3(C)CC[C@H]2C1(C)C,FRET,IC50,-,-,>1200 µg/mL
CC(C)C[C@H](NC(=O)[C@@H]1C[C@@H](O)CN1C(=O)CCCCCCCCCCCCCCC(=O)N[C@@H](CC(N)=O)C(=O)N[C@@H](Cc1ccccc1)C(=O)O)C(=O)N[C@@H](Cc1ccccc1)C(N)=O,-,IC50,-,-,>5.5 µM
CCCCCCCCCCCC(=O)O[C@H]1CC[C@]2(C)[C@H]3CC=C4[C@@H]5CC(C)(C)CC[C@]5(C(=O)O)CC[C@@]4(C)[C@]3(C)CC[C@H]2C1(C)C,FRET,IC50,-,-,>1200 µg/mL
CC[C@H](NC(=O)N(C)Cc1ccccn1)C(=O)N[C@@H](CSc1ccc2ccccc2c1)[C@@H]1O[C@@H]1[C@H](CSc1ccc2ccccc2c1)NC(=O)[C@H](CC)NC(=O)N(C)Cc1ccccn1,fluorescence,IC50,-,-,>1000 µg/mL
COC(=O)[C@]12CCC(C)(C)C[C@H]1C1=CC[C@@H]3[C@@]4(C)CC[C@H](O)C(C)(C)[C@@H]4CC[C@@]3(C)[C@]1(C)CC2,HPLC,IC50,-,-,20 µM
CC(=O)O[C@@H]1C[C@]2(C)[C@H]3CC=C4[C@@H]5CC(C)(C)CC[C@]5(C(=O)O)CC[C@@]4(C)[C@]3(C)CC[C@H]2C(C)(C)[C@H]1OC(C)=O,FRET,IC50,-,-,>1200 µg/mL
CC1(C)CC[C@]2(C(=O)NCCCCCC(=O)O)CC[C@]3(C)C(=CCC4[C@@]5(C)CC[C@H](O)C(C)(C)C5CC[C@]43C)C2C1,HPLC,IC50,-,-,1.7 µM
CC(C)(CC(=O)O)CC(=O)O[C@@H]1C[C@]2(C)[C@H]3CC=C4[C@@H]5CC(C)(C)CC[C@]5(C(=O)OCc5ccccc5)CC[C@@]4(C)[C@]3(C)CC[C@H]2C(C)(C)[C@H]1OC(=O)CC(C)(C)CC(=O)O,FRET,IC50,-,-,>1200 µg/mL

A second listing of 4 rows from above:

structure,method,read-out,strain,changes,result
CC(O)[C@H](NC(=O)CCCCCCCCCCCCCCC(=O)N[C@@H](CC(N)=O)C(=O)N[C@@H](Cc1ccccc1)C(=O)O)C(=O)N[C@@H](CC(N)=O)C(=O)N[C@@H](Cc1ccccc1)C(N)=O,-,IC50,-,-,>5.5 µM
COC(=O)[C@]12CCC(C)(C)CC1C1=CCC3[C@@]4(C)CC[C@H](NC(=O)CCCCC(=O)O)C(C)(C)C4CC[C@@]3(C)[C@]1(C)CC2,HPLC,IC50,-,-,3 µM
CC(C)C[C@H](NC(=O)[C@@H](NC(=O)CCCCCCCCCCCCCCC(=O)N[C@@H](CS(C)=O)C(=O)N[C@@H](Cc1ccccc1)C(=O)O)C(C)O)C(=O)N[C@@H](Cc1ccccc1)C(N)=O,-,IC50,-,-,11.89 µM
CC(=O)O[C@@H]1C[C@]2(C)[C@H]3CC=C4[C@@H]5CC(C)(C)CC[C@]5(C(=O)O)CC[C@@]4(C)[C@]3(C)CC[C@H]2C(C)(C)[C@H]1OC(C)=O,FRET,IC50,-,-,>1200 µg/mL

ICn is the concentration giving n% inhibition. Blank or dashed fields: not listed here.